Compound potency records, mixed from different reports. Data source: NIAID ChemDB in PubChem.

Common to all: tests in culture; organism: HIV-1; cells: MT-4; method: p24; measure: EC95

ECn is the concentration giving n% inhibition of infection, replication or growth. Neighbouring rows are from separate reports.

N#Cc1cc(Cl)cc(Oc2cc(Cl)cc(OCc3nc4cccc(Cl)c4s3)c2)c1 ; result: <20 µM
CC(C)n1c(=O)c(O)c2n(c1=O)CCN(Cc1cccc3ccccc13)C2=O ; result: <10 µM
CC1(C)NCCCn2c1nc(C(=O)NCc1ccc(F)cc1)c(O)c2=O ; result: <1 µM
CC(=O)N1CCC(n2c(=O)c(O)c3n(c2=O)CCN(Cc2ccc(F)cc2)C3=O)CC1 ; result: <10 µM
CN(C)S(=O)(=O)N(C)C1COCCn2c1nc(C(=O)NCc1ccc(F)cc1)c(O)c2=O ; result: <1 µM
COC(=O)C(CCSC)n1c(=O)c(O)c2n(c1=O)CCN(Cc1ccc(F)cc1)C2=O ; result: <10 µM
CC1(C)NC(=O)n2c1nc(C(=O)NCc1ccc(F)cc1)c(O)c2=O ; result: <50 µM
CC(C)[C@H](NC(=O)OCc1ccccn1)C(=O)N[C@@H](Cc1ccccc1)[C@@H](O)C[C@H](Cc1ccccc1)NC(=O)OCc1cccnc1 ; strain: NL4-3 ; mutations: PR-L10R M46I L63P ; result: 0.8 µM
N#Cc1cc(Cl)cc(Oc2cc(OCc3[nH]nc4nc(N5CCNCC5)ccc34)ccc2Cl)c1 ; result: <20 µM
CC(C)n1c(=O)c(O)c2n(c1=O)C(CCOCc1ccccc1)CN(Cc1ccc(F)cc1)C2=O ; result: <10 µM
N#Cc1cc(Cl)cc(Oc2cc(Cl)cc(OCC(=O)Nc3ccc(C(N)=O)cc3Cl)c2)c1 ; result: <20 µM
Cc1nnc(C(=O)N(C)C2CN(C)CCn3c2nc(C(=O)NCc2ccc(F)cc2)c(O)c3=O)o1 ; result: <1 µM
N#Cc1cc(Cl)cc(Oc2cc(OCc3[nH]nc4nc(N5CCC5)ccc34)ccc2Cl)c1 ; result: <20 µM
CN1CCn2c(nc(C(=O)NCc3ccc(F)cc3)c(O)c2=O)C(N(C)C(=O)C(=O)N2CCOCC2)C1 ; result: <1 µM
CC(C)n1c(=O)c(O)c2n(c1=O)CCN(Cc1ccccc1C#N)C2=O ; result: <10 µM
Cc1cc(OCCN(C)C)ccc1NC(=O)COc1ccc(Cl)c(Oc2cc(Cl)cc(C#N)c2)c1 ; result: <20 µM

2 of the rows above, restated:

N#Cc1cc(Cl)cc(Oc2cc(OCc3[nH]nc4nc(N5CCNCC5)ccc34)ccc2Cl)c1 ; result: <20 µM
CC(C)n1c(=O)c(O)c2n(c1=O)C(CCOCc1ccccc1)CN(Cc1ccc(F)cc1)C2=O ; result: <10 µM